Test results from PubChem BioAssay AID588726 (The Scripps Research Institute Molecular Screening Center, 2011).
Only a part is listed here, and it is no random draw. Active and inactive are the calls of the source. Cut-off read from the data, not from the text of the source: active = inhibition above about 27%; inactive = the rest.

Chains of the proteins cited; added tags and fusions are not shown.
UniProt P9WQA3, whole entry: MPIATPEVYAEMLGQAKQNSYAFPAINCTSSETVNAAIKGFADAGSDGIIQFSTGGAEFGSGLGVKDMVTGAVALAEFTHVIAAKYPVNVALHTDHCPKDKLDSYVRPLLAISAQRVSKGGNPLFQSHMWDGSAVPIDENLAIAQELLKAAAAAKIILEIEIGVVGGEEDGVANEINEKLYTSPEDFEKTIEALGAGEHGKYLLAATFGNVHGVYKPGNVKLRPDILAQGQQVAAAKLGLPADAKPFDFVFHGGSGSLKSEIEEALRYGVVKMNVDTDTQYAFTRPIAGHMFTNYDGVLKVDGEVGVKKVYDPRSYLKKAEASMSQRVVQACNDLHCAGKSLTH

The molecules below were run against Fructose-bisphosphate aldolase (Mycobacterium tuberculosis (strain ATCC 25618 / H37Rv)) (UniProt P9WQA3) (assay: M. tuberculosis aldolase activity blockers – biochemical, fluorescence, strain H37Rv, primary screen (AID 588726;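 note: 0% = vehicle and 100% = reference inhibitor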)). Settings: purified M. tuberculosis FBA, fluorescence read-out; at 1 µM; stronger effect = higher value.

SMILES | inhibition
COc1ccc(C(=O)NCC2(N3CCCCC3)CCCCC2)cc1 | inactive: 1.47%
CCC(c1nnnn1C1CCCC1)N1CCC(n2c(=O)[nH]c3ccccc32)CC1 (configuration not stated) | inactive: 0.87%
CC(C)(C)OC(=O)N1CCC(N(C(=O)c2ccccc2)c2ccc(F)cc2)CC1 | inactive: -0.95%
COc1ccc(C(=O)NCC2(N3CCCCC3)CCCCC2)c(OC)c1OC | inactive: 6.58%
O=C(NCC1(N2CCCCC2)CCCCC1)c1ccc(=O)[nH]c1 | inactive: 2.35%
CCCCn1nnnc1C(c1cccs1)N1CCC(n2c(=O)[nH]c3ccccc32)CC1 (configuration not stated) | inactive: 1.07%
O=C(NCC1(N2CCCCC2)CCCCC1)c1cccs1 | inactive: 2.61%
CCCCn1nnnc1C(CC)N1CCC(n2c(=O)[nH]c3ccccc32)CC1 (configuration not stated) | inactive: 3.38%
CSc1ccccc1C(=O)NCC1(N2CCCCC2)CCCCC1 | inactive: -1.21%
Cc1cccc(NC2(C#N)CCN(Cc3ccccc3)CC2)c1 | inactive: -0.02%
O=c1[nH]c2ccccc2n1C1CCN(C(c2ccccc2OC(F)(F)F)c2nnnn2C2CCCCC2)CC1 (configuration not stated) | inactive: 1.41%
O=C(NCC1(N2CCCCC2)CCCCC1)c1ccc(Cl)nc1 | inactive: 0.8%
Cc1cc(C)cc(N(C(=O)c2ccccc2)C2CCN(C(=O)OC(C)(C)C)CC2)c1 | inactive: 1.7%
O=C(NCC1(N2CCOCC2)CCCCC1)c1cc2ccccc2o1 | inactive: 0.02%
O=C(OC1CN2CCC1CC2)C1c2ccccc2Oc2ccccc21 (configuration not stated) | inactive: 2.01%
O=c1[nH]c2ccccc2n1C1CCN(C(c2cc3ccccc3o2)c2nnnn2C2CCCCC2)CC1 (configuration not stated) | inactive: 0.34%
O=C(NCC1(N2CCCCC2)CCCCC1)c1ccc(Cl)s1 | inactive: -0.96%
N#CC1(Nc2ccccc2)CCN(Cc2ccccc2)CC1 | inactive: 1.67%
COc1ccc(Cl)cc1C(=O)NCC1(N2CCOCC2)CCCCC1 | inactive: 1.87%
CCOC(=O)N1CCC(Nc2ccc(OC)cc2)CC1 | inactive: -0.57%
CCCCn1nnnc1C(c1ccc(OC)cc1)N1CCC(n2c(=O)[nH]c3ccccc32)CC1 (configuration not stated) | inactive: -1.31%
CC(C)(C)n1nnnc1C(c1ccccc1)N1CCC(n2c(=O)[nH]c3ccccc32)CC1 (configuration not stated) | inactive: 0.73%

SMILES | inhibition
O=C1CCN(Cc2ccccc2)CC1 | inactive: 5.69%
CCOc1ccc(C)cc1CN(CCCl)CCCl | inactive: 1.31%
O=C(NCC1(N2CCCCC2)CCCCC1)c1ccc(F)cc1 | inactive: -5.14%
CCCCn1nnnc1C(c1cc2ccccc2o1)N1CCC(n2c(=O)[nH]c3ccccc32)CC1 (configuration not stated) | inactive: -2.75%
O=P1(N(CCCl)CCCl)SCCCS1 | inactive: -0.63%
CCCCOc1ccc(C(=O)NCC2(N3CCOCC3)CCCCC2)cc1 | inactive: -0.51%
COc1ccc(NC2CCN(CCc3ccccc3)CC2)c(OC)c1 | inactive: 1.63%
CCOC(=O)N1CCC(Nc2ccc(F)cc2)CC1 | inactive: 5.06%
O=c1[nH]c2ccccc2n1C1CCN(C(c2ccccc2)c2nnnn2C2CCCCC2)CC1 (configuration not stated) | inactive: -3.46%
COc1cc(C(=O)NCC2(N(C)C)CCCCC2)ccc1OC(F)F | inactive: 4.23%
CCOC(=O)N1CCC(Nc2cccc(C)c2)CC1 | inactive: 1.16%
O=c1[nH]c2ccccc2n1C1CCN(C(c2cccc3ccccc23)c2nnnn2C2CCCC2)CC1 (configuration not stated) | inactive: -1.96%
CC(C)(C)n1nnnc1C(c1ccccc1OC(F)(F)F)N1CCC(n2c(=O)[nH]c3ccccc32)CC1 (configuration not stated) | inactive: -0.78%
O=C(NCC1(N2CCCCC2)CCCCC1)c1ccc(OC(F)F)cc1 | inactive: -0.66%
CCN1CCC(Nc2ccc(Cl)cc2)CC1 | inactive: 1.18%
N#CC1(Nc2ccccc2)CCN(CCc2ccccc2)CC1 | inactive: 1.6%
O=c1[nH]c2ccccc2n1C1CCN(C(c2ccccc2OC(F)(F)F)c2nnnn2C2CCCC2)CC1 (configuration not stated) | inactive: -1.49%
O=C(NCC1(N2CCCCC2)CCCCC1)c1cccc([N+](=O)[O-])c1 | inactive: 1.97%
CSc1ccc(C(=O)NCC2(N3CCOCC3)CCCCC2)cc1 | inactive: 17.1%
O=C(NCC1(N2CCCCC2)CCCCC1)c1cccc(C(F)(F)F)c1 | inactive: -8.43%
COc1cc(C(=O)NCC2(N3CCCCC3)CCCCC2)ccc1OC(F)F | inactive: 2.31%
O=C(NCC1(N2CCOCC2)CCCCC1)c1cc(=O)[nH]c2ccccc12 | inactive: 8.36%

SMILES | inhibition
CCCCn1nnnc1C(c1cccc2ccccc12)N1CCC(n2c(=O)[nH]c3ccccc32)CC1 (configuration not stated) | inactive: -4.06%
CN1CCN(CCOC(=O)C(O)(c2ccccc2)c2ccccc2)CC1 | inactive: 2%
CC(C)c1ccc(C(=O)NCC2(N3CCOCC3)CCCCC2)cc1 | inactive: 0.86%
COc1ccc(NC2CCN(C(=O)OC(C)(C)C)CC2)cc1 | inactive: 1.13%
CCCCn1nnnc1C(c1ccccc1OC(F)(F)F)N1CCC(n2c(=O)[nH]c3ccccc32)CC1 (configuration not stated) | inactive: 0.28%
CC(C)c1ccc(NC2CCN(C(=O)OC(C)(C)C)CC2)cc1 | inactive: -0.57%
COc1ccc(CN(CCCl)CCCl)cc1Cl | inactive: -0.3%
CN(C)c1cccc(C(=O)NCC2(N3CCCCC3)CCCCC2)c1 | inactive: 8.23%
COc1cc(OC)c(C(=O)NCC2(N(C)C)CCCCC2)cc1OC | inactive: 7.44%
CCC(c1nnnn1C(C)(C)C)N1CCC(n2c(=O)[nH]c3ccccc32)CC1 (configuration not stated) | inactive: 1.91%
O=C(NCC1(N2CCOCC2)CCCCC1)c1cc(F)c(F)cc1Cl | inactive: 2.06%
CCCCn1nnnc1C(c1ccnc2ccccc12)N1CCC(n2c(=O)[nH]c3ccccc32)CC1 (configuration not stated) | inactive: -0.08%
O=C(NCC1(N2CCCCC2)CCCCC1)c1cncc(Br)c1 | inactive: -1.15%
CN1CCC(Nc2cccc(F)c2)CC1 | inactive: 5.52%
COc1ccc(C(c2nnnn2C2CCCC2)N2CCC(n3c(=O)[nH]c4ccccc43)CC2)cc1 (configuration not stated) | inactive: 5.37%
Cc1ccc(C(=O)NCC2(N(C)C)CCCCC2)o1 | inactive: 5.03%
CCCOc1ccc(C(=O)NCC2(N(C)C)CCCCC2)cc1OC | inactive: -0.38%
CCCCn1nnnc1C(c1ccccc1)N1CCC(n2c(=O)[nH]c3ccccc32)CC1 (configuration not stated) | inactive: -1.78%
COc1cc(C(=O)NCC2(N3CCOCC3)CCCCC2)cc(OC)c1C | inactive: -0.91%
O=C(NCC1(N2CCOCC2)CCCCC1)c1cc(Br)ccc1Cl | inactive: 0.97%
O=c1[nH]c2ccccc2n1C1CCN(C(c2cccs2)c2nnnn2C2CCCCC2)CC1 (configuration not stated) | inactive: -1.92%
COc1ccc(C(=O)NCC2(N3CCOCC3)CCCCC2)cc1OC | inactive: 1.05%

SMILES | inhibition
O=c1[nH]c2ccccc2n1C1CCN(C(c2ccnc3ccccc23)c2nnnn2C2CCCC2)CC1 (configuration not stated) | inactive: -0.04%
COc1cccc(C(c2nnnn2C(C)(C)C)N2CCC(n3c(=O)[nH]c4ccccc43)CC2)c1OC (configuration not stated) | inactive: -1.03%
CCOC(=O)N1CCC(Nc2ccc(C)cc2)CC1 | inactive: 1.13%
N/C(=N\O)c1c(N)no[n+]1[O-] | inactive: -0.75%
O=C(OC1CN2CCC1CC2)C1c2ccccc2C=Cc2ccccc21 (configuration not stated) | inactive: 10.2%
O=c1[nH]c2ccccc2n1C1CCN(C(c2cccs2)c2nnnn2C2CCCC2)CC1 (configuration not stated) | inactive: 1.77%
CCCCn1nnnc1C(c1cccc(OC)c1OC)N1CCC(n2c(=O)[nH]c3ccccc32)CC1 (configuration not stated) | inactive: 0.33%
N#Cc1ccc(C(=O)NCC2(N3CCCCC3)CCCCC2)cc1 | inactive: -1.38%
CC(C)(C)OC(=O)N1CCC(N(C(=O)c2ccccc2)c2ccc(Cl)cc2)CC1 | inactive: 1.57%
CN(C)C1(CNC(=O)c2cccc(C#N)c2)CCCCC1 | inactive: 4.68%
c1ccc(CN2CCC(Nc3ccccc3)CC2)cc1 | inactive: 3.83%
Cc1cc(N(CCCl)CCCl)ccc1C=O | inactive: -1.59%
O=c1[nH]c2ccccc2n1C1CCN(C(c2ccccc2)c2nnnn2C2CCCC2)CC1 (configuration not stated) | inactive: 2.17%
CCCN1CCC(Nc2cc(OC)cc(OC)c2)CC1 | inactive: 1.59%
CC(C)(C)n1nnnc1C(c1cccc2ccccc12)N1CCC(n2c(=O)[nH]c3ccccc32)CC1 (configuration not stated) | inactive: -3.57%
CC(=O)N(c1ccccc1)C1CCNCC1 | inactive: 0.71%
COc1cccc(C(c2nnnn2C2CCCCC2)N2CCC(n3c(=O)[nH]c4ccccc43)CC2)c1OC (configuration not stated) | inactive: -0.1%
CCC(c1nnnn1C1CCCCC1)N1CCC(n2c(=O)[nH]c3ccccc32)CC1 (configuration not stated) | inactive: 0.82%
O=c1[nH]c2ccccc2n1C1CCN(C(c2ccnc3ccccc23)c2nnnn2C2CCCCC2)CC1 (configuration not stated) | inactive: 2.2%
COc1cc(OC)cc(C(=O)NCC2(N3CCCCC3)CCCCC2)c1 | inactive: -0.39%
Cc1ccc(C(=O)NCC2(N3CCCCC3)CCCCC2)o1 | inactive: 1.82%
Fc1ccccc1NC1CCN(Cc2ccccc2)CC1 | inactive: 4.23%

SMILES | inhibition
Cc1ccc(NC2(C#N)CCN(Cc3ccccc3)CC2)cc1 | inactive: 0.37%
Cc1ccccc1NC1(C#N)CCN(Cc2ccccc2)CC1 | inactive: -2.97%
CC(C)(C)n1nnnc1C(c1ccnc2ccccc12)N1CCC(n2c(=O)[nH]c3ccccc32)CC1 (configuration not stated) | inactive: -2.02%
CCN1CCC(Nc2cccc(F)c2)CC1 | inactive: 5.56%
COc1ccc(C(c2nnnn2C2CCCCC2)N2CCC(n3c(=O)[nH]c4ccccc43)CC2)cc1 (configuration not stated) | inactive: -1.56%
O=C(NCC1(N2CCCCC2)CCCCC1)c1ccco1 | inactive: 0.15%
Cn1c(=O)[nH]cc(N(CCCl)CCCl)c1=O | inactive: -3.95%
CN(C)c1ccc(C(=O)NCC2(N3CCCCC3)CCCCC2)cc1 | inactive: -1.41%
CCOc1ncccc1C(=O)NCC1(N2CCOCC2)CCCCC1 | inactive: 1.07%
CN1CCC(Nc2ccc(F)c(Cl)c2)CC1 | inactive: 1.86%
CC(C)(C)OC(=O)N1CCC(Nc2ccccc2)CC1 | inactive: 5.44%
O=C(O)C1(Nc2ccccc2)CCN(Cc2ccccc2)CC1 | inactive: 2.65%
CCCOc1ccc(C(=O)NCC2(N(C)C)CCCCC2)cc1 | inactive: -3.77%
O=c1[nH]c2ccccc2n1C1CCN(C(c2cc3ccccc3o2)c2nnnn2C2CCCC2)CC1 (configuration not stated) | inactive: -3.15%
COc1cc(OC)cc(C(=O)NCC2(N3CCOCC3)CCCCC2)c1 | inactive: -4.25%
COc1cccc(C(c2nnnn2C2CCCC2)N2CCC(n3c(=O)[nH]c4ccccc43)CC2)c1OC (configuration not stated) | inactive: -0.24%
COc1cccc(C(=O)N(c2cc(C)cc(C)c2)C2CCN(C(=O)OC(C)(C)C)CC2)c1 | inactive: 1%
CCC(CO)(C(=O)OC1CN2CCC1CC2)c1ccccc1 (configuration not stated) | inactive: 3.44%
CN1CCC(Nc2ccc(Cl)cc2)CC1 | inactive: 0.76%
